Pooled drug test results. Numbers come from NIAID ChemDB, via PubChem.

All rows: tests in culture; species: Herpes simplex virus 1; method: plaque count; read-out: EC50

Neighbouring rows are from separate reports. ECn is the concentration giving n% inhibition of infection, replication or growth. a–b is a range or a potency band. Blank or dashed fields: not listed here.

compound | strain | cell line | result
O=c1[nH]c(=O)n([C@H]2C[C@H](O)[C@@H](CO)O2)cc1I | P-ACG-R | HFF | 4.4 µg/mL
Nc1nc(=O)n([C@@H]2O[C@H](CO)[C@@H](O)[C@@H]2F)cc1I | CHR-3 | HELF | 0.015 µg/mL
CCCC(=O)Nc1nc(=O)n([C@@H]2C[C@H](CO)[C@@H](O)C2)cc1COC | McIntyre | A549 | 0.87 µM
Cc1cn([C@@H]2O[C@H](CO)[C@@H](O)[C@@H]2F)c(=O)[nH]c1=O | VR-3 | CCRF-HSB-2 | 0.085 µM
O=C(O)P(=O)(O)O | HL-3 | MEF | 4.9 µg/mL
CC(CC#N)NC(=O)c1cc(NC(=O)c2cc(NC(=O)c3cc(NC=O)cn3C)cn2C)cn1C |  | BSC-1 | <200 µg/mL
Cc1cn([C@H]2C[C@H](O)[C@@H](CO)O2)c(=S)[nH]c1=O | KOS | MRC-5 | 6.2 µM
Nc1ccn(C[C@@H](CO)OCP(=O)(O)O)c(=O)n1 |  | MRC-5 | 22.5 µM
Nc1nc2c(ncn2COCCO)c(=O)[nH]1 | MP | HELF | 0.02 µg/mL
OC[C@H]1O[C@@H](n2nnc3ccnc(Cl)c32)C[C@@H]1O |  | VERO | >368 µM
O=c1[nH]c(=O)n([C@H]2C[C@H](O)[C@@H](CO[P@]3(=O)OCc4cccc(-c5ccccc5)c4O3)O2)cc1/C=C/Br | KUPKA (TK+) | VERO | 0.26 µg/mL
Nc1nc2c(ncn2COCCO)c(=O)[nH]1 | KOS | BALB/3T3 | 0.02 µg/mL
C=Cc1cn(OC(CO)CO)c(=O)[nH]c1=O | KOSSB (TK-) | VERO | >50 µg/mL
Nc1nc2c(ncn2CC[C@@H](O)CO)c(=O)[nH]1 | C42 | BHK | 14.5 µM
CCOCn1ccc(=O)[nH]c1=O |  |  | >100 µM
Nc1nc2c(ncn2CCC(COC=O)COC=O)c(=O)[nH]1 | HFEM | VERO | 5.8 µM
Nc1nc2c(ncn2COC2COP(=O)(O)OC2)c(=O)[nH]1 | Schooler | MRC-5 | 10–37 µM
O=c1[nH]c(=O)n([C@H]2C[C@H](O)[C@@H](COP3(=O)OCc4ccc5ccccc5c4O3)O2)cc1/C=C/Br | KUPKA (TK+) | VERO | 0.25 µg/mL
CC(CC(=N)N)NC(=O)c1cc(NC(=O)c2cc(NC(=O)c3cc([N+](=O)[O-])cn3C)cn2C)cn1C |  | BSC-1 | <200 µg/mL
Nc1nccc2nn([C@H]3C[C@H](O)[C@@H](CO)O3)nc12 |  | VERO | >396 µM
COCc1cn([C@@H]2C[C@H](CO)[C@@H](O)C2)c(=O)nc1NC(=O)C(C)(C)C | McIntyre | A549 | >1024 µM
CC(=O)OCCOCn1cc(F)c(=O)[nH]c1=O |  |  | >100 µM
Cc1cc(Cl)nc2cc(N)ccc12 |  | KB | 3 µg/mL
Nc1nc(=S)n([C@H]2C[C@H](O)[C@@H](CO)O2)cc1Br | TK- | MRC-5 | >312 µM
Cn1cc(NC(=O)c2cc(NC(=O)c3cc([N+](=O)[O-])cn3C)cn2C)cc1C(=O)Nc1ccc(C(=N)N)cc1 |  | BSC-1 | <200 µg/mL
Nc1nc(=S)n([C@@H]2O[C@H](CO)[C@@H](O)[C@@H]2O)cc1I | KOS | MRC-5 | 0.65 µM
O=C(OC[C@H]1O[C@@H](OC(=O)c2cc(O)c(O)c(O)c2)[C@H](OC(=O)c2cc(O)c(O)c(O)c2)[C@@H](OC(=O)c2cc(O)c(O)c(O)c2)[C@@H]1OC(=O)c1cc(O)c(O)c(O)c1)c1cc(O)c(O)c(O)c1 |  | MRC-5 | 4.12 µM
Nc1ccn(C[C@H]2COP(=O)(O)CO2)c(=O)n1 |  | MRC-5 | 28.4 µM
OC[C@H]1O[C@@H](n2c(Br)nc3cc(Cl)c(Cl)cc32)[C@H](O)[C@@H]1O |  | HFF | >251 µM
CCCCCC(=O)OCC(CO)CCn1cnc2c(=O)[nH]c(N)nc21 | HFEM | VERO | 6 µM
Cn1cc(NC=O)cc1C(=O)Nc1cc(C(=O)Nc2cc(C(=O)Nc3cccc(C(=N)N)c3)n(C)c2)n(C)c1 |  | BSC-1 | <200 µg/mL
Nc1nccc2c1ncn2[C@@H]1O[C@H](CO)[C@@H](O)[C@H]1O |  | VERO | 41 µM
O=C(NCc1ccc(Cl)cc1)c1cn2c3c(cc(CN4CCOCC4)cc3c1=O)OC(c1cccnc1)C2 | F | HFF | 6.7 µM
O=[N+]([O-])c1ccccc1S(=O)(=O)n1c(CCc2ccccn2)nc2ccccc21 |  |  | <5 µg/mL
Cn1cc(NC(=O)c2cc(NC(=O)c3cc([N+](=O)[O-])cn3C)cn2C)cc1C(=O)Nc1cccc(C(=N)N)c1 |  | BSC-1 | <200 µg/mL
Cn1cc(C(=O)NCc2ccc(Cl)cc2)c(=O)c2cc(CN3CCOCC3)ccc21 | L5047716 ACV resistant | HFF | 2.6 µM
CO[C@H]1C[C@H](n2cc(/C=C/Br)c(=O)[nH]c2=O)O[C@@H]1COP1(=O)OCc2cccc(C)c2O1 | B2006 (TK-) | VERO | >128 µg/mL
CN(C)c1ccn(COCCO)c(=O)n1 |  |  | >100 µM
Cn1cc(NC(=O)c2cc(NC(=O)c3cc(NC=O)cn3C)cn2C)cc1C(=O)NCCC#N |  | BSC-1 | <200 µg/mL
O=c1[nH]c(=S)n([C@H]2C[C@H](O)[C@@H](CO)O2)cc1Cl | KOS | RPMI8226 | 31 µM
O=c1[nH]c(=O)n([C@H]2C[C@H](O)[C@@H](CO)O2)cc1/C=C/Br | VR-3 | HELF | 0.017 µg/mL
CCOCn1ccc(N)nc1=O |  |  | >100 µM
Nc1nc(=S)n([C@H]2C[C@H](O)[C@@H](CO)O2)cc1Cl | KOS | RPMI8226 | 22.1 µM
Nc1nccc2c1ncn2[C@H]1CC[C@@H](CO)O1 |  | VERO | >429 µM
CCc1cn([C@@H]2S[C@H](CO)[C@@H](O)[C@@H]2F)c(=O)[nH]c1=O | VR-3 | CCRF-HSB-2 | 0.052 µM
COCc1cn([C@@H]2C[C@H](CO)[C@@H](O)C2)c(=O)nc1Nc1ccccc1 | McIntyre | A549 | >2920 µM
Nc1nc2c(ncn2COCCO)c(=O)[nH]1 |  | HFF | 4.1 µM
O=c1[nH]c(=O)n([C@@H]2S[C@H](CO)[C@@H](O)[C@@H]2F)cc1I | VR-3 | CCRF-HSB-2 | 0.046 µM
O=c1[nH]c(=O)n(COCCO)cc1F |  |  | >100 µM
Nc1ccn(CSC(CO)CO)c(=O)n1 | ICI | VERO | >50 µM
CCCc1cn([C@H]2C[C@H](O)[C@@H](CO)O2)c(=O)[nH]c1=O | B2006 (TK-) | HELA BU | >10 µM
CN(C)c1ccc2ccc(=O)[nH]c2c1 |  | KB | 5 µg/mL
COC(=O)C(Cc1c[nH]c2ccccc12)NP(=O)(O)OCC1C/C1=C/n1cnc2c(N)ncnc21 |  | VERO | 31 µM
Cc1cn([C@@H]2O[C@H](CO)[C@@H](O)[C@@H]2O)c(=O)[nH]c1=O | VR-3 | CCRF-HSB-2 | 1.78 µM
O=c1[nH]c(=O)n([C@H]2C[C@H](O)[C@@H](COP3(=O)OCc4cccc(-c5ccccc5)c4O3)O2)cc1/C=C/Br | KUPKA (TK+) | VERO | 0.41 µg/mL
Nc1ccn([C@@H]2O[C@H](CO)[C@@H](O)[C@H]2O)c(=S)n1 | KOS | MRC-5 | >386 µM
Nc1nccc2c1ncn2[C@H]1C[C@H](O)[C@@H](CO)O1 |  | VERO | >397 µM
Nc1nc(=S)n([C@@H]2O[C@H](CO)[C@@H](O)[C@@H]2O)cc1F | KOS | RPMI8226 | 288 µM
Cn1cc(NC=O)cc1C(=O)Nc1cc(C(=O)Nc2cc(C(=O)Nc3ccc(C(=N)N)cc3)n(C)c2)n(C)c1 |  | BSC-1 | <200 µg/mL
Nc1nc(=S)n([C@@H]2O[C@H](CO)[C@@H](O)[C@@H]2O)cc1Cl | KOS | RPMI8226 | >341 µM
Cc1cc(N(C)C)nc2cc(N)ccc12 |  | KB | 2 µg/mL
Nc1nc2c(ncn2COCCO)c(=O)[nH]1 | SC16 | MRC-5 | 0.6 µg/mL
Nc1nc2c(ncn2CCC(CO)CO)c(=O)[nH]1 | KOS (TK-) | MRC-5 | 240 µg/mL
CN(C)CCN1C(=O)c2cccc3cc(N)cc(c23)C1=O | HFEM | VERO | <4 µg/mL
Nc1nc(=O)n([C@H]2C[C@H](O)[C@@H](CO)O2)cc1/C=C/Br |  | BHK-21 | 0.45 µM
NC1=NC2C(C=CN2CC(CO)CCO)C(=O)N1 | F delta305 (TK-) | VERO | 29 µM
Cc1cnc2cc(N(C)C)ccc2c1 |  | KB | 9 µg/mL
O=c1[nH]c(=O)n([C@H]2C[C@H](O)[C@@H](CO)O2)cc1/C=C/C(F)(F)F | KOS | HELA BU | <10 µM

The first 8 rows once more:

compound | strain | cell line | result
O=c1[nH]c(=O)n([C@H]2C[C@H](O)[C@@H](CO)O2)cc1I | P-ACG-R | HFF | 4.4 µg/mL
Nc1nc(=O)n([C@@H]2O[C@H](CO)[C@@H](O)[C@@H]2F)cc1I | CHR-3 | HELF | 0.015 µg/mL
CCCC(=O)Nc1nc(=O)n([C@@H]2C[C@H](CO)[C@@H](O)C2)cc1COC | McIntyre | A549 | 0.87 µM
Cc1cn([C@@H]2O[C@H](CO)[C@@H](O)[C@@H]2F)c(=O)[nH]c1=O | VR-3 | CCRF-HSB-2 | 0.085 µM
O=C(O)P(=O)(O)O | HL-3 | MEF | 4.9 µg/mL
CC(CC#N)NC(=O)c1cc(NC(=O)c2cc(NC(=O)c3cc(NC=O)cn3C)cn2C)cn1C |  | BSC-1 | <200 µg/mL
Cc1cn([C@H]2C[C@H](O)[C@@H](CO)O2)c(=S)[nH]c1=O | KOS | MRC-5 | 6.2 µM
Nc1ccn(C[C@@H](CO)OCP(=O)(O)O)c(=O)n1 |  | MRC-5 | 22.5 µM